Pooled drug test results. Numbers come from NIAID ChemDB, via PubChem.

Common to all: whole-cell or culture tests; species: HIV-1; measure: EC50

Conditions beyond the fields shown may differ between rows.

smiles,changes,method,cells,strain or isolate,setting,value
Cc1ccc(-c2cc(-c3ccc(Cl)cc3)nc(/N=C3\C(=O)N(CN4CCCCC4)c4ccc(Cl)cc43)n2)cc1,,cytopathic effect / MTT,MT-4,IIIB,,>3 µM
Nc1nc2c(ncn2COC(CO)CO)c(=O)[nH]1,,,CEM,,,>400 µg/mL
C=C(C)[C@@H]1CC[C@]2(C(=O)NCCC(C)(C)C)CC[C@]3(C)[C@H](CC[C@@H]4[C@@]5(C)CC[C@H](OC(=O)CC(C)(C)C(=O)O)C(C)(C)[C@@H]5CC[C@]43C)[C@@H]12,,absorbance,,NL4-3,,0.0368 µM
Cc1cc(O)ccc1O,,syncytia,MOLT-4,IIIB,,25 µg/mL
O=c1nc(NCc2ccc(-c3ccccn3)s2)c2cccnc2n1O,RT-R172K,,PM1,BaL,,0.15 µM
COC(=O)C(CNC(=O)/C=C/c1ccc(O)c(O)c1)NC(=O)/C=C/c1ccc(O)c(O)c1,,cytopathic effect / neutral red,MT-2,LAI,,58 µM
Nc1ncnc2c1ncn2[C@H]1CO[C@@H](CCP(=O)(O)O)O1,,cytopathic effect,MT-4,,,47 µg/mL
CC(C)C1=C2[C@H]3CC[C@@H]4[C@@]5(C)CC[C@H](OC(=O)[C@H]6C[C@@H](C(=O)O)C6(C)C)C(C)(C)[C@@H]5CC[C@@]4(C)[C@]3(C)CC[C@@]2(CC(=O)NCC2CC2)CC1=O,,p24 / ELISA,MT-2,92HT599,,<1 µM
O=C(O)c1cc(-n2cccc2)ccc1Cl,,luciferase / cell fusion,PBMC/5.25M7,93TH051 X4R5 CLADE E,,57.3 µM
Cn1nc(NS(C)(=O)=O)c2c(Cl)ccc(-n3c([C@H](Cc4cc(F)cc(F)c4)NC(=O)Cn4nc(C5CC5)c5c4C(F)(F)[C@H]4C[C@@H]54)nc4nc(OCCC(F)(F)F)ccc4c3=O)c21,,luciferase,MT-2,NL4-3,,0.000079 µM
CC1(C)[C@@H](CCO)C[C@H]1n1nnc2c(=O)[nH]cnc21,,cytopathic effect,CEM,,,>100 µg/mL
CNCc1ccc2c(c1)[C@H](NC(=O)C(=O)Nc1ccc(Cl)c(F)c1)[C@@H](CN=C(N)N)C2,,luciferase / entry,Cf2Th-CD4/CCR5,AD8,,>100 µM
O=C(NCCCC[C@H](NC(=O)c1ccc(O)c(O)c1)C(=O)O)c1ccc(O)c(O)c1,,cytopathic effect / neutral red,MT-2,LAI,,>62.5 µM
O=C(O)CCc1ccc(O)c(O)c1,,cytopathic effect / MTT,MT-4,IIIB,,7 µg/mL
O=C(/C=C/c1cc(O)c(O)c(O)c1)NCCC(NC(=O)/C=C/c1cc(O)c(O)c(O)c1)C(=O)O,,cytopathic effect / neutral red,MT-2,LAI,,1.7 µM
Cc1cn([C@H]2C[C@H](N=[N+]=[N-])[C@@H](CO)O2)c(=O)[nH]c1=O,,luciferase,TZM-bl,NL4-3,,0.00745 µM
Cc1cc(C)c(Nc2nc(NC3CCN(Cc4ccc(Cl)c(Cl)c4)CC3)nc3nc[nH]c23)c(C)c1,,MTT,MT-4,RES056,,>189 µM
O=C(O)c1cc(O)c(O)c(O)c1,,syncytia,MOLT-4,IIIB,,20 µg/mL
Oc1ccc(-c2oc3cc(O)cc4c3c2-c2cc(O)cc(O)c2[C@H](c2ccc(O)cc2)[C@@H]4O)cc1,,cytopathic effect / XTT,CEM + CEM-SS,RF,,>13 µg/mL
Cc1cc(C)c(Nc2nc(NC3CCN(Cc4ccc(C#N)cc4)CC3)nc3nc[nH]c23)c(C)c1,,MTT,MT-4,IIIB,,>26.79 µM
O=C1c2cc(-c3ccccc3)sc2N(Cc2ccccc2)S(=O)(=O)N1CCOCCO,,,CEM,,,>400 µg/mL
CC1(C)[C@@H](CCO)C[C@H]1n1nnc2c(N)ncnc21,,cytopathic effect,CEM,,,>100 µg/mL
O=C(NCCC(NC(=O)c1cc(O)c(O)c(O)c1)C(=O)O)c1cc(O)c(O)c(O)c1,,cytopathic effect / neutral red,MT-2,LAI,,2.7 µM
O=C(O)c1ccc(O)c(O)c1,,cytopathic effect / MTT,MT-4,IIIB,,17 µg/mL
O=C(O)c1cn(C2CC2)c2c(OC(F)F)c(N3CCN(c4ccc(Cl)cc4)CC3)c(F)cc2c1=O,,p24,MOLT-4,IIIB,,0.964 µM
CC(C)C1=C2[C@H]3CC[C@@H]4[C@@]5(C)CC[C@H](OC(=O)[C@H]6C[C@@H](C(=O)O)C6(C)C)C(C)(C)[C@@H]5CC[C@@]4(C)[C@]3(C)CC[C@@]2(CCNCC(C)(C)NC(=O)c2nccs2)CC1=O,,p24 / ELISA,MT-2,92HT599,,<1 µM
Cc1ccc(-c2cc(-c3ccc(Cl)cc3)nc(/N=C3\C(=O)N(CN4CCOCC4)c4ccccc43)n2)cc1,,cytopathic effect / MTT,MT-4,IIIB,,>3 µM
O=C1c2sc(-c3ccccc3)cc2NS(=O)(=O)N1Cc1ccccc1,,,CEM,,,>400 µg/mL
O=C1CN(C(=O)c2cc(-c3cc(Br)cc(OC(F)(F)F)c3)n(-c3ccncc3)n2)CN1,K103N/Y181C,luminescence,MT-4,NL4-3,,0.031 µM
Cc1ccc(-c2cc(-c3ccc(Cl)cc3)nc(/N=C3\C(=O)N(CN(C)C)c4ccccc43)n2)cc1,,cytopathic effect / MTT,MT-4,IIIB,,>10 µM
Cc1cc(C)c(Nc2nc(NC3CCN(Cc4ccccc4C#N)CC3)nc3nc[nH]c23)c(C)c1,,MTT,MT-4,IIIB,,27.33 µM
CC(C)C1=C2[C@H]3CC[C@@H]4[C@@]5(C)CC[C@H](OC(=O)[C@H]6C[C@@H](C(=O)O)C6(C)C)C(C)(C)[C@@H]5CC[C@@]4(C)[C@]3(C)CC[C@@]2([C@@H](O)CNC(=O)C(C)(C)C)CC1=O,,p24 / ELISA,MT-2,92HT599,,<1 µM
Cc1ccc(-c2cc(-c3ccc(Cl)cc3)nc(/N=C3\C(=O)N(CN(C)C)c4ccc(Br)cc43)n2)cc1,,cytopathic effect / MTT,MT-4,IIIB,,>13 µM
CC1=C([C@H](C)CC/C=C(/C)C(=O)O)CC[C@@]2(C)[C@@H]3CC[C@H]4C(C)(C)C(=O)CC[C@]4(C)[C@]34O[C@@H]4[C@@]12O,,syncytia,,,,32.66 µg/mL
O=C(/C=C/c1ccc(O)c(O)c1)NCCC(NC(=O)/C=C/c1ccc(O)c(O)c1)C(=O)O,,cytopathic effect / neutral red,MT-2,LAI,,67.2 µM
Cc1ccc(-c2cc(-c3ccc(Cl)cc3)nc(/N=C3\C(=O)Nc4ccccc43)n2)cc1,,cytopathic effect / MTT,MT-4,IIIB,,>9 µM
Cn1nc(NS(C)(=O)=O)c2c(Cl)ccc(-n3c([C@H](Cc4cc(F)cc(F)c4)NC(=O)Cn4nc(C5CC5)c5c4C(F)(F)[C@H]4C[C@@H]54)nc4nc(OCCC(C)(F)F)ccc4c3=O)c21,,luciferase,MT-2,NL4-3,,0.00005 µM
CC(C)C1=C2[C@H]3CC[C@@H]4[C@@]5(C)CC[C@H](OC(=O)[C@H]6C[C@@H](C(=O)O)C6(C)C)C(C)(C)[C@@H]5CC[C@@]4(C)[C@]3(C)CC[C@@]2(CCNC(=O)c2ccc(O[C@H]3CCOC3)cc2)CC1=O,,p24 / ELISA,MT-2,92HT599,,<1 µM
O=C1c2cc(-c3ccccc3)sc2N(Cc2ccccc2)S(=O)(=O)N1COCc1ccccc1,,,CEM,,,>400 µg/mL
Cc1ccc(-c2cc(-c3ccc(Cl)cc3)nc(/N=C3\C(=O)Nc4ccc(Cl)cc43)n2)cc1,,cytopathic effect / MTT,MT-4,IIIB,,>8 µM
C=C(C)[C@@H]1CC[C@]2(C(=O)NC(C)(C)CN3CCN(CC)CC3)CC[C@]3(C)[C@H](CC[C@@H]4[C@@]5(C)CC[C@H](OC(=O)CC(C)(C)C(=O)O)C(C)(C)[C@@H]5CC[C@]43C)[C@@H]12,,p24,MT-2,92HT599,40% human serum,≤0.05 µM
O=C(O)Cc1cc(O)ccc1O,,syncytia,MOLT-4,IIIB,,6 µg/mL
Nc1nc2c(ncn2COCCO)c(=O)[nH]1,,,CEM,,,>400 µg/mL
COC(=O)C(CCCNC(=O)c1ccc(O)c(O)c1)NC(=O)c1ccc(O)c(O)c1,,cytopathic effect / neutral red,MT-2,LAI,,>62.5 µM
CC(C)C1=C2[C@H]3CC[C@@H]4[C@@]5(C)CC[C@H](OC(=O)[C@H]6C[C@@H](C(=O)O)C6(C)C)C(C)(C)[C@@H]5CC[C@@]4(C)[C@]3(C)CC[C@@]2([C@@H](O)CNC2(c3ncc(Cl)cn3)CC2)CC1=O,,p24 / ELISA,MT-2,92HT599,,<1 µM
CC1(C)[C@@H](CCO)C[C@H]1n1nnc2c(=O)[nH]c(N)nc21,,cytopathic effect,CEM,,,>100 µg/mL
CC(C)C1=C2[C@H]3CC[C@@H]4[C@@]5(C)CC[C@H](OC(=O)[C@H]6C[C@@H](C(=O)O)C6(C)C)C(C)(C)[C@@H]5CC[C@@]4(C)[C@]3(C)CC[C@@]2([C@@H](O)CNC(=O)C(C)(C)NC(=O)c2cccnc2)CC1=O,,p24 / ELISA,MT-2,92HT599,,<1 µM
O=C(Cc1nc(=O)n(O)c2ncccc12)NCc1ccccc1,RT-R172K IN-G189R,,PM1,BaL,,0.0005 µM

Again, the opening 5 rows:

smiles,changes,method,cells,strain or isolate,setting,value
Cc1ccc(-c2cc(-c3ccc(Cl)cc3)nc(/N=C3\C(=O)N(CN4CCCCC4)c4ccc(Cl)cc43)n2)cc1,,cytopathic effect / MTT,MT-4,IIIB,,>3 µM
Nc1nc2c(ncn2COC(CO)CO)c(=O)[nH]1,,,CEM,,,>400 µg/mL
C=C(C)[C@@H]1CC[C@]2(C(=O)NCCC(C)(C)C)CC[C@]3(C)[C@H](CC[C@@H]4[C@@]5(C)CC[C@H](OC(=O)CC(C)(C)C(=O)O)C(C)(C)[C@@H]5CC[C@]43C)[C@@H]12,,absorbance,,NL4-3,,0.0368 µM
Cc1cc(O)ccc1O,,syncytia,MOLT-4,IIIB,,25 µg/mL
O=c1nc(NCc2ccc(-c3ccccn3)s2)c2cccnc2n1O,RT-R172K,,PM1,BaL,,0.15 µM

Blank or dashed fields: not listed here. ECn: concentration that inhibits the pathogen or its effect by n%.